The conditions of data set [1]: 293.2 K; 101.33 kPa; Liquid; Vibrating tube method.
The nature of data set [2]: refractive index (Na D-line) (dimensionless). Particulars: 293.2 K; 101.33 kPa; Liquid; Standard Abbe refractometry.

Numbers after ± are expanded uncertainties.

For the compound `CCCCOP(=O)(OCCCC)OCCCC` [tributyl phosphate], the mass density in data set [1] turned out to be 972.7 ± 0.81 kg/m3. Besides, the refractive index in data set [2] is on record as 1.4235 ± 0.0006.
